In ChEMBL document CHEMBL1155284, “Synthesis and antibacterial activity of some new thiadiaza/triazaphospholes, thiadiaza/triaza/tetrazaphosphinines and thiadiaza/tetrazaphosphepines containing 1,2,4-triazinone moiety” (Eur J Med Chem, 2009):

Legend:
Pseudomonas aeruginosa [1] = test: Antimicrobial activity against Pseudomonas aeruginosa ATCC 27853 after 24 hrs by tube dilution technique
Pseudomonas aeruginosa [2] = test: Antimicrobial activity against Pseudomonas aeruginosa ATCC 27853 at 100 ug/mL after 16 to 20 hrs by disk diffusion method
Escherichia coli [3] = test: Antimicrobial activity against Escherichia coli MTCCB 1652 after 24 hrs by tube dilution technique
Escherichia coli [4] = test: Antimicrobial activity against Escherichia coli MTCCB 1652 at 100 ug/mL after 16 to 20 hrs by disk diffusion method
Staphylococcus aureus [5] = test: Antimicrobial activity against Staphylococcus aureus MTCCB 737 at 100 ug/mL after 16 to 20 hrs by disk diffusion method
[6] = tested on: Staphylococcus epidermidis; test: Antimicrobial activity against Staphylococcus epidermidis MTCCB 1824 at 100 ug/mL after 16 to 20 hrs by disk diffusion method
[7] = tested on: Staphylococcus epidermidis; test: Antimicrobial activity against Staphylococcus epidermidis MTCCB 1824 after 24 hrs by tube dilution technique
Staphylococcus aureus [8] = test: Antimicrobial activity against Staphylococcus aureus MTCCB 737 after 24 hrs by tube dilution technique

Structure (SMILES)	MIC (Pseudomonas aeruginosa [1]) [mg/L]	diameter of the inhibition zone (DIZ) (Pseudomonas aeruginosa [2]) [mm]	MIC (Escherichia coli [3]) [mg/L]	diameter of the inhibition zone (DIZ) (Escherichia coli [4]) [mm]	diameter of the inhibition zone (DIZ) (Staphylococcus aureus [5]) [mm]	diameter of the inhibition zone (DIZ) [6] [mm]	MIC [7] [mg/L]	MIC (Staphylococcus aureus [8]) [mg/L]
CCOP1(=O)Nc2nnc(C)c(=O)n2NC1C (centres undefined)	6.25 (≈ 24.1 µM)	29	6.25 (≈ 24.1 µM)	25	27	24	6.25 (≈ 24.1 µM)	6.25 (≈ 24.1 µM)
C/C=N/N1c2nnc(C)c(=O)n2NP1(=O)c1ccccc1 (centres undefined)	50 (≈ 164 µM)	16	50 (≈ 164 µM)	14	20	17	50 (≈ 164 µM)	25 (≈ 82.2 µM)
CCOP1(=O)C(C)NN=C2N(N)C(=O)C(C)=NN21 (centres undefined)	6.25 (≈ 22.8 µM)	28	12.5 (≈ 45.6 µM)	21	25	23	6.25 (≈ 22.8 µM)	6.25 (≈ 22.8 µM)

Converted amounts (≈) assume the structure as drawn.
